A mixed list of measured activities; the numbers were collected in NIAID ChemDB.

Common to all: host cell toxicity; cell line: HeLa; measure: CC50

Blank or dashed fields: not listed here. CCn is the concentration with n% toxicity to the cells. Neighbouring rows are from separate reports. a–b is a range or a potency band.

smiles,method,value
COC(=O)[C@]1(C)CCC[C@@]2(C)[C@H]1[C@H](OC(=O)c1ccccc1)CC1C[C@@H](O)[C@]3(C)CC[C@]12C3,,14.8 µM
OC[C@H]1O[C@H](n2cnc3cc(Cl)c(Cl)cc32)[C@@H](O)[C@H]1O,,≥400 µg/mL
CC[C@]1(CO)O[C@@H](n2cc(C)c(=O)[nH]c2=O)C[C@@H]1O,,>100 µM
CN1C(=O)[C@]23CC4=CC=C[C@H](O)[C@H]4N2C(=O)[C@@]1(CO)SSSS3,,30 µg/mL
O=C(O)CCCCCNc1ccc([N+](=O)[O-])c2nonc12,fluorescence,>50 µM
Cc1cccc(OCCNC(=O)c2ccccc2Cl)c1,,>172.6 µM
CC(C)[Si]1(C(C)C)OC[C@H]2O[C@@H](n3cnc4cc(Cl)c(Cl)cc43)[C@H](O)[C@H]2O[Si](C(C)C)(C(C)C)O1,,≥40 µg/mL
C[C@@]12CC[C@]3(C1)C(C[C@@H](OC(=O)c1ccccc1)[C@H]1[C@@](CO)(C(=O)O)CCC[C@@]13C)C[C@@H]2O,,2.2 µM
Nc1ccn([C@H]2CC[C@@H](CO)O2)c(=O)n1,,>100 µM
NCCOP(=O)(O)OC[C@H](O)CO,,>200 µg/mL
O=C(CCCCCNc1ccc([N+](=O)[O-])c2nonc12)ON1C(=O)CCC1=O,fluorescence,>50 µM
Clc1cc2nc[nH]c2cc1Cl,,≥40 µg/mL
Cc1ccc2oc(-c3ccc(O)cc3O)nc2c1,,26.11 µM
CC(=O)OC1C=COC=C2C[C@@H]3C(=O)N4C5C(=COC=CC5OC(C)=O)C[C@H]4C(=O)N3C21,,60 µg/mL
OC[C@H]1O[C@@H](n2cnc3cc(Cl)c(Cl)cc32)[C@@H](O)[C@H]1O,,≥200 µg/mL
CC(=O)OC1C=COC=C2C[C@H]3C(=O)N4C5C(=COC=CC5OC(C)=O)C[C@H]4C(=O)N3C21,,80 µg/mL
O=C1C=CN([C@@H]2O[C@H](CO)[C@@H](O)[C@H]2O)C(=O)C1,trypan blue,>500 µg/mL
CC(=O)OC1C=COC=C2C[C@@]3(O)C(=O)N4C5C(=COC=CC5OC(C)=O)C[C@@]4(S)C(=O)N3C21,,164 µg/mL
C[C@@]12CC[C@]3(C1)C(CC2=O)C[C@@H](OC(=O)c1ccccc1)[C@H]1[C@](C)(C(=O)O)CCC[C@@]13C,,0.9 µM
OC[C@H]1OC(O)C[C@@H](O)[C@@H]1O,,5000 µM
C#C[C@]1(CO)O[C@@H](n2cnc3c(N)ncnc32)C[C@@H]1O,,>200 µM
O[C@H]1[C@@H](O)COC(n2cnc3cc(Cl)c(Cl)cc32)[C@@H]1O,,>400 µg/mL
CC(=O)O[C@@H]1CC2CC(=O)[C@]3(C)CC[C@@]2(C3)[C@@]2(C)CCC[C@@](C)(C(=O)O)[C@H]12,,253 µM
Nc1ccn([C@@H]2C[C@H](CO)[C@@H](O)[C@H]2O)c(=O)n1,trypan blue,200 µg/mL
NC(=O)c1csc([C@@H]2O[C@H](CO)[C@@H](O)[C@H]2O)n1,,100 µM
Nc1ncnc2c1ncn2[C@@H]1C=C(CO)[C@@H](O)[C@H]1O,trypan blue,20 µg/mL
Cc1cccc(OCCNC(=O)c2ccc3ccccc3c2O)c1,,73.1 µM
Cc1ccc(C(=O)Nc2ccc(S(=O)(=O)O)c3cc(S(=O)(=O)O)cc(S(=O)(=O)O)c23)cc1NC(=O)c1cccc(NC(=O)Nc2cccc(C(=O)Nc3cc(C(=O)Nc4ccc(S(=O)(=O)O)c5cc(S(=O)(=O)O)cc(S(=O)(=O)O)c45)ccc3C)c2)c1,,>140 µM
Cc1cccc(OCCNC(=O)c2ccccc2F)c1,,170 µM
CC(=O)OC1C=COC=C2C[C@@]3(SC(C)=O)C(=O)N4C5C(=COC=CC5OC(C)=O)C[C@@]4(SC(C)=O)C(=O)N3C21,,40 µg/mL
CC(=O)N[C@H]1[C@@H](O[C@@H]2O[C@H](C[C@@H](O)[C@H]3O[C@@H](n4ccc(=O)[nH]c4=O)[C@H](O)[C@@H]3O)[C@H](O)[C@H](O)[C@H]2NC(=O)/C=C/CC(C)C)O[C@H](CO)[C@@H](O)[C@@H]1O,,1 µM
CCCCC/C=C\C/C=C\C/C=C\C/C=C\CCCC(=O)O[C@H]1CC[C@@]2(C)C(=CC[C@H]3[C@@H]4CC[C@H]([C@H](C)CCCC(C)C)[C@@]4(C)CC[C@@H]32)C1,,150 µg/mL
O=C1C2CC3=COC=CC(O)C3N2C(=O)C2=CC3=COC=CC(O)C3N12,,3 µg/mL
NC(=O)c1c[se]c(C2OC(CO)C(O)C2O)c1,,6.4 µM
O=c1[nH]c(=O)n([C@@H]2O[C@H](CO)C[C@H]2O)cc1F,trypan blue,>500 µg/mL
Nc1nccc2c1ncn2[C@@H]1C[C@H](CO)[C@@H](O)[C@H]1O,,2 µg/mL
O=c1[nH]cnc2c1ncn2[C@H]1CC[C@@H](CO)O1,,>200 µM
Cn1c(=O)c2c(ncn2C)n(C)c1=O,,50–100 µg/mL
C#Cc1c(C(N)=O)ncn1[C@@H]1O[C@H](CO)[C@@H](O)[C@H]1O,,0.21 µg/mL

A second listing of 4 rows from above:

{"smiles": "CCCCC/C=C\\C/C=C\\C/C=C\\C/C=C\\CCCC(=O)O[C@H]1CC[C@@]2(C)C(=CC[C@H]3[C@@H]4CC[C@H]([C@H](C)CCCC(C)C)[C@@]4(C)CC[C@@H]32)C1", "value": "150 µg/mL"}
{"smiles": "OC[C@H]1OC(O)C[C@@H](O)[C@@H]1O", "value": "5000 µM"}
{"smiles": "O[C@H]1[C@@H](O)COC(n2cnc3cc(Cl)c(Cl)cc32)[C@@H]1O", "value": ">400 µg/mL"}
{"smiles": "O=C(O)CCCCCNc1ccc([N+](=O)[O-])c2nonc12", "method": "fluorescence", "value": ">50 µM"}